Target: SARS-CoV-2 M^pro (Severe acute respiratory syndrome coronavirus 2, UniProt P0DTD1)
Assay: biochemical
Details: read-out: M^pro % inhibition at 10 µM

COc1cc(O)c(CC=C(C)C)c(O)c1C(=O)/C=C/c1ccc(O)cc1 [xanthohumol] gave an inhibition at 10 µM of 11%.
